{
  "source": "patent US20240279313A1",
  "about": "“BARRIER FUNCTION PRESERVING PEPTIDES FOR MEMBRANES” (priority 2021, published 2024)",
  "key": {"[1]": {"assay": "Cytotoxicity in the SINV in vitro studies", "type": "cell-based"}, "[2]": {"assay": "SAXS, suppression of HIV-TAT-induced cubic phases (NGC)"}, "[3]": {"tested_on": "C57BL6/J mice challenged with LPS (E. coli O111:B4)", "assay": "LPS-induced endotoxemia model, tissue TUNEL+ cells", "type": "in vivo, mouse", "conditions": "10 mg/kg LPS, 24 hours; single dose 250 μg intraperitoneal", "experimental": "FIG. 5. […] Results obtained from three independent experiments. […] Two-tailed t-test.\nAnimal experiments. All mouse experiments were performed according to European guidelines for Care and Use of laboratory Animals. Protocols were approved by the Committee on the Ethics of Animal Experiments of the Regierung von Oberbayern. […] Mice were sacrificed after 24 hours and lung, liver, kidney, and heart tissues were isolated and processed. Immunofluorescence staining was performed on fixed cryosections and imaged using confocal microscopy.\nAnimals were housed according to institutional regulations with ad libitum access to food and water. All mice were C57BL/6J background. For the endotoxemia model, female mice (16 weeks old) were challenged with 10 mg/kg LPS from E. coli (0111:B4) and treated with one single dose of 250 μg of apoMP1 intraperitoneally or saline as control. […]\nCryosections (4 μm) were fixed with cold acetone followed by antigen blockade using 5% goat serum/phosphate buffered saline. […] Cell death (TUNEL^+ cells) was detected using ApopTag® Red in silt Apoptosis Detection Kit (Millipore) following the manufacturer's instructions. […] Histological sections were quantified by computer-assisted morphometric analysis using ImageJ software (National Institutes of Health)."}, "[4]": {"conditions": "HIV-TAT P/L 1/40 + test peptide P/L 1/50"}, "[5]": {"conditions": "HIV-TAT P/L 1/40 + test peptide P/L 1/100"}},
  "note": "Ends that are not written are not given here.",
  "data": [
    {"substance": "GEQLKQKFQEFWDKLKEWY [AP10, GEQLKQKFQEFWDKLKEWY]", "values": [
      {"measurement": "Cytotoxicity", "setting": "[1]", "value": "minimal cytotoxicity"}
    ]},
    {"substance": "GEKAKEWVQAFWQKAKEYF [AP7, GEKAKEWVQAFWQKAKEYF]", "values": [
      {"measurement": "Cytotoxicity", "setting": "[1]", "value": "minimal cytotoxicity"}
    ]},
    {"substance": "GEKVKEFFQAFFQKAKEYW [AP8, GEKVKEFFQAFFQKAKEYW]", "values": [
      {"measurement": "Cytotoxicity", "setting": "[1]", "value": "minimal cytotoxicity"}
    ]},
    {"substance": "GDAVKEWFEKAWQKVKEFF [AP4, GDAVKEWFEKAWQKVKEFF]", "values": [
      {"measurement": "Cytotoxicity", "setting": "[1]", "value": "minimal cytotoxicity"}
    ]},
    {"substance": "GEKLKQKAQEFFDAVKEWF [AP11, GEKLKQKAQEFFDAVKEWF]", "values": [
      {"measurement": "Cytotoxicity", "setting": "[1]", "value": "minimal cytotoxicity"}
    ]},
    {"substance": "D-W-F-K-A-F-Y-D-K-V-A-E-K-F-K-E-A-F (DWFKAFYDKVAEKFKEAF) [apoMP1, well-characterized apolipoprotein A-I mimetic peptide]", "values": [
      {"measurement": "Cubic phases present", "setting": "[2]; HIV-TAT P/L 1/40 + test peptide P/L 1/25", "value": "complete absence of NGC-rich cubic phases"},
      {"measurement": "<K> (NGC) of Pn3m cubic phase", "setting": "[2]; [4]", "value": "<K> = −2.79E−2 nm^−2"},
      {"measurement": "Lattice parameter of Pn3m cubic phase", "setting": "[2]; [4]", "value": "Pn3m (α = 15.3 nm)"},
      {"measurement": "<K> (NGC) of Pn3m cubic phase", "setting": "[2]; [5]", "value": "<K> = −2.26E−2 nm^−2"},
      {"measurement": "Lattice parameter of Pn3m cubic phase", "setting": "[2]; [5]", "value": "Pn3m (α = 17.0 nm)"},
      {"measurement": "Liver tissue damage (TUNEL+ cells)", "setting": "[3]", "value": "fully abrogated"},
      {"measurement": "Lung tissue damage (TUNEL+ cells)", "setting": "[3]", "value": "fully abrogated"}
    ]},
    {"substance": "GDAVREWFEKAWQRVREFF [AP1, G-D-A-V-R-E-W-F-E-K-A-W-Q-R-V-R-E-F-F]", "values": [
      {"measurement": "Cytotoxicity", "setting": "[1]", "value": "minimal cytotoxicity"}
    ]},
    {"substance": "GDAVKEWFEKAWQKVKEFL [AP9, GDAVKEWFEKAWQKVKEFL]", "values": [
      {"measurement": "Cytotoxicity", "setting": "[1]", "value": "minimal cytotoxicity"}
    ]},
    {"substance": "FFERVRQWAKEFWERVADG [AP2, FFERVRQWAKEFWERVADG]", "values": [
      {"measurement": "Cytotoxicity", "setting": "[1]", "value": "minimal cytotoxicity"}
    ]}
  ]
}
